Screening data, single-dose tests

Measurements from “University of Dundee, Small-Polar-MMV Screening Library” (2021), ChEMBL document CHEMBL3988442.

Mtb glucose medium: 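Whole-cell growth test on Mycobacterium tuberculosis, read after 3 days in glucose-containing 7H9 medium; the read-out is not stated. Tested at 500 µM. Direction is inferred from retests: higher values go with more growth inhibition. Size under these conditions: about 18,000 compounds, about 1,400 of them at 50% or above in at least one test.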
Mtb cholesterol medium: 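Phenotypic screen: M. tuberculosis growth, cholesterol and DPPC medium, 4 days; the read-out is not stated. Compounds at 500 µM. The record gives no direction; compounds that gave an IC50 in retests scored well above the rest, so higher reads as more growth inhibition. About 18,000 compounds were tested under these conditions; 5% (about 900) showed 50% or more at least once.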

Results are given as percent effect. The controls that fix the scale are not given in the record; negative values are as filed. This is part of a subset picked to be rich in strong results. A dash means the value is not listed here; it may have been measured.

- CN(C)c1ccnc(C(=O)NCC(=O)c2ccco2)c1 : Mtb cholesterol medium: 27.65%
- CC1CCN(S(=O)(=O)NC(C)C(C)C)CC1 (stereo not given) : Mtb glucose medium: 33.23%; Mtb cholesterol medium: 57.76%
- O=C1NCC(C(=O)NCCCc2ccc(Cl)cc2)N1 (stereo not given) : Mtb glucose medium: 51.49%; Mtb cholesterol medium: 36.41%
- COc1ncccc1C(=O)NC(C)c1ccncc1 (stereo not given) : Mtb glucose medium: 14.57%
- O=C(NCC1CCCOC1)c1ccnc2ccccc12 (stereo not given) : Mtb cholesterol medium: 3.001%
- NC(=O)CN1CCN(CCOc2ccc(Cl)cc2)CC1 : Mtb glucose medium: 25.46%
- CCNC(=O)C(C)Nc1ccc(C)cc1C (stereo not given) : Mtb glucose medium: 42.32%
- CC(C)C(=O)Nc1ccccc1-n1cncn1 : Mtb cholesterol medium: -5.927%
- CCCS(=O)(=O)NC(Cc1ccccn1)[C@H]1C[C@@H](O)C1 (stereo not given in full) : Mtb cholesterol medium: -19.74%
- O=C(CN1CCN(C2CC2)CC1)NCc1ccco1 : Mtb glucose medium: 12.03%
- CCCC1COCCN1Cc1cc(C)n[nH]1 (stereo not given) : Mtb cholesterol medium: 5.366%
- CN(C)c1cc(CN)c2ccccc2n1 : Mtb glucose medium: 92.9%; Mtb cholesterol medium: 88.55%
- CC1CN(C(=O)NCc2ccsc2)CCO1 (stereo not given) : Mtb glucose medium: 5.734%
- O=C(COc1ccccc1Cl)NCC(=O)c1ccco1 : Mtb glucose medium: 52.2%
- Cc1c(C(=O)NC(C)C(N)=O)sc2cccc(F)c12 (stereo not given) : Mtb cholesterol medium: -3%
- O=C(C1CCc2ccccc21)N1CCS(=O)(=O)CC1 (stereo not given) : Mtb glucose medium: 9.931%
- Cc1noc(C(C)N2CCC(C)CC2)n1 (stereo not given) : Mtb glucose medium: -2.154%
- CC(C(N)=O)S(=O)(=O)c1ccc2ccccc2c1 (stereo not given) : Mtb glucose medium: 22.46%; Mtb cholesterol medium: -4.667%
- CCOc1ccccc1C(=O)N1CCC(O)CC1 : Mtb cholesterol medium: 3.837%
- O=C(Nc1ccc(Cl)cn1)c1ccncc1 : Mtb glucose medium: 52.05%; Mtb cholesterol medium: 34.75%
- CC(C)NC(=O)Cn1cnc2c1c(=O)n(C)c(=O)n2C : Mtb cholesterol medium: -0.8616%
- Nc1cnccc1N1CCOCC1 : Mtb cholesterol medium: -13.06%
- CC(C)N(C(=O)C1CCNCC1)C(C)C : Mtb glucose medium: 0.3769%
- COc1ncccc1NS(=O)(=O)c1cccc(Cl)c1 : Mtb glucose medium: -15.38%; Mtb cholesterol medium: -12.27%
- Cc1ccoc1C(=O)Nc1cccc(CO)n1 : Mtb glucose medium: -12.83%
- CC(=O)NCCCNCc1cccc(Cl)c1F : Mtb glucose medium: 41.01%; Mtb cholesterol medium: 19.07%
- Cn1nccc1C(=O)N1CCC(Oc2ccccc2)C1 (stereo not given) : Mtb glucose medium: 51.6%; Mtb cholesterol medium: 52.32%
- Cc1ccc(C(=O)N2CCCC(CO)C2)o1 (stereo not given) : Mtb cholesterol medium: -7.101%
- O=C1CCC(C(=O)Nc2ccc3c(c2)CCC3)=NN1 : Mtb glucose medium: -2.09%
- NC(=O)CN1CCCN(Cc2ccccc2)CC1 : Mtb glucose medium: -0.7916%
- Cc1ccc(C(=O)CCN2CCOCC2C(N)=O)cc1 (stereo not given) : Mtb glucose medium: -3.874%; Mtb cholesterol medium: 102.9%
- CN(Cc1ccc2c(c1)OCO2)C(=O)Cc1cccs1 : Mtb glucose medium: 77.2%; Mtb cholesterol medium: 82.63%
- CC(=O)N1CCN(C(=O)CCc2cc(Cl)cs2)CC1 : Mtb glucose medium: 40.38%
- O=C(NCCCc1ccccc1)C1CNCCO1 (stereo not given) : Mtb glucose medium: 11.37%; Mtb cholesterol medium: 2.675%
- Cc1ncn(CC(=O)N2CC[C@](C)(O)[C@H](C)C2)c1C : Mtb glucose medium: 6.28%
- CC(=O)NCCCS(=O)(=O)c1ncccc1Cl : Mtb glucose medium: -4.149%
- Cc1ccnc(NCCNC(=O)c2cc(C)n[nH]2)c1 : Mtb cholesterol medium: 9.313%
- CCN(CC1CCNCC1)CC1CCCO1 (stereo not given) : Mtb cholesterol medium: -4.467%
- Cc1ocnc1C(=O)Nc1cncc(Br)c1O : Mtb glucose medium: 5.655%

Some entries from above, unchanged:

compound,Mtb glucose medium,Mtb cholesterol medium
O=C(NCCCc1ccccc1)C1CNCCO1 (stereo not given),11.37%,2.675%
Cc1ccc(C(=O)CCN2CCOCC2C(N)=O)cc1 (stereo not given),-3.874%,102.9%
O=C1NCC(C(=O)NCCCc2ccc(Cl)cc2)N1 (stereo not given),51.49%,36.41%
Cc1ccnc(NCCNC(=O)c2cc(C)n[nH]2)c1,-,9.313%